Anti-infective test results gathered from many reports (values: NIAID ChemDB through PubChem).

Shared fields: target-level tests

An empty or dashed field is not shown.

compound,tested at,target,strain,measure,organism,read by,value
CC(=O)N[C@H](C(=O)N[C@H](C(=O)N1C[C@H](Oc2cccc3cccnc23)CC1C(=O)NC1(C(=O)O)CC1)C(C)C)C1CCCCC1,,NS3 protease,,IC50,Hepatitis C virus,,250 µM
CC[C@H](NC(=O)[C@@H](NC(=O)[C@@H](NC(=O)[C@H](CC(C)C)NC(=O)[C@@H](CCC(=O)O)NC(=O)[C@H](CC(=O)O)NC(C)=O)[C@@H](C)CC)C1CCCCC1)C(=O)CCCCCC(C)C,10 µM,HCV NS3 protease,,inhibition,Hepatitis C virus,,91%
O=C(O)c1cc2nc(-c3cccc(Cl)c3)cc(-c3cc(Cl)cc(Cl)c3)n2n1,,RNA-dependent RNA polymerase,,IC50,Hepatitis C virus,,>10 µM
N#Cc1c(C2CCCCC2)nc(SCC(=O)OCc2ccccc2)[nH]c1=O,,NS3/NS4A helicase,,IC50,Hepatitis C virus,,15–40 µM
C[C@@H](NC(=O)c1ccc2c(c1)nc(-c1ccoc1)n2C1CCCCC1)C(=O)Nc1ccc(-c2ccc(C(=O)O)o2)cc1,,NS5B polymerase,,IC50,Hepatitis C virus,,<0.5 µM
CC(C)C[C@H](NC(=O)CCC(=O)O)C(=O)N[C@@H](CCC(=O)O)C(=O)N[C@@H](CCC(=O)O)C(=O)N[C@@H](CS)C(=O)O,1.67 µM,Nonstructural protein 3 NTPase/helicase,,inhibition,Hepatitis C virus,,17%
N#Cc1c(C2CCCCC2)nc(Sc2cc(C(F)(F)F)ccc2[N+](=O)[O-])[nH]c1=O,,NS3/NS4A helicase,,IC50,Hepatitis C virus,,<15 µM
C=CCC(NC(=O)[C@H](CC1CCCCC1)NC(=O)[C@@H](NC(=O)[C@H](CC(C)C)NC(=O)[C@@H](CC(C(=O)O)C(=O)O)NC(=O)[C@@H](N)CC(=O)O)[C@@H](C)CC)C(=O)C(=O)C(=O)N[C@@H](Cc1ccc(OC)cc1)C(=O)O,,NS3/NS4A serine protease,,IC50,Hepatitis C virus,,0.00045 µM
CC(NC(=O)c1ccc2c(c1)nc(-c1ccoc1)n2C1CCCCC1)C(=O)Nc1cccc(-c2cccc(O)c2)c1,,NS5B polymerase,,IC50,Hepatitis C virus,,5–25 µM
CC[C@H](NC(=O)[C@@H](NC(=O)[C@@H](NC(=O)[C@H](CC(C)C)NC(=O)[C@@H](CCC(=O)O)NC(=O)[C@H](CC(=O)O)NC(C)=O)[C@@H](C)CC)C1CCCCC1)C(O)/C=C/c1ccc(OC)cc1,,HCV NS3 protease,,IC50,Hepatitis C virus,,>10 µM
O=C(NC1(C(=O)Nc2ccc3ccc(=O)oc3c2)CCCC1)c1ccc2c(c1)nc(-c1ccoc1)n2C1CCCCC1,,NS5B polymerase,,IC50,Hepatitis C virus,,0.5–5 µM
Nc1ccn([C@H]2CS[C@@H](COP(=O)(O)OP(=O)(O)OP(=O)(O)O)O2)c(=O)n1,,DNA polymerase,Polymerase mutant M550V/L526M/V553I,IC50,Hepatitis B virus,,9.92 µM
O=C(O)CCC(=O)N[C@H](C(=O)N[C@@H](CCC(=O)O)C(=O)N[C@@H](CCC(=O)O)C(=O)N[C@@H](CS)C(=O)O)C1CCCCC1,1.67 µM,Nonstructural protein 3 NTPase/helicase,,inhibition,Hepatitis C virus,,11%
N#Cc1c(-c2ccc(Br)cc2)nc(NC(=O)Nc2cccc(F)c2)[nH]c1=O,,NS3/NS4A helicase,,IC50,Hepatitis C virus,,<15 µM
C[C@@H](NC(=O)c1ccc2c(c1)nc(-c1ccoc1)n2C1CCCCC1)C(=O)Nc1ccc(-c2ccoc2)cc1,,NS5B polymerase,,IC50,Hepatitis C virus,,0.5–5 µM
CC[C@@H](C)[C@H](NC(=O)[C@H](CC(C)C)NC(=O)[C@@H](CCC(=O)O)NC(=O)[C@H](CC(=O)O)NOC(=O)CCC(=O)O)C(=O)N[C@@H](CC1CCCCC1)C(=O)NC1(C(=O)O)CC1,,NS3 protease,,Ki,Hepatitis C virus,,0.091 µM
CC(=O)N[C@H](C(=O)N[C@H](C(=O)N1C[C@H](Oc2ccc(Cl)cc2)CC1C(=O)NC1(C(=O)O)CC1)C(C)C)C1CCCCC1,,NS3 protease,,IC50,Hepatitis C virus,,50 µM
O=C(O)c1cnn2c(-c3ccc(F)cc3)cc(-c3ccc(F)cc3)nc12,,RNA-dependent RNA polymerase,,IC50,Hepatitis C virus,,>10 µM
O=C(O)/C=C/c1ccc(NC(=O)C(NC(=O)c2ccc3c(c2)nc(-c2ccoc2)n3C2CCCCC2)C2CCCCC2)cc1,,NS5B polymerase,,IC50,Hepatitis C virus,,0.5–5 µM
N#Cc1c(C2CCCCC2)nc(SCc2cccc([N+](=O)[O-])c2)[nH]c1=O,,NS3/NS4A helicase,,IC50,Hepatitis C virus,,<15 µM
O=C(O)c1cnn2c(C3CCCCC3)c(-c3ccc(OCc4ccccc4)cc3)cnc12,,RNA-dependent RNA polymerase,,IC50,Hepatitis C virus,,1–10 µM
CC(=O)N[C@H](C(=O)N[C@H](C(=O)N1C[C@H](Oc2ccnc3c(C(F)(F)F)cccc23)CC1C(=O)NC1(C(=O)O)CC1)C(C)C)C1CCCCC1,,NS3 protease,,IC50,Hepatitis C virus,,6 µM
CCC(C)[C@H](NC(=O)[C@@H](NC(=O)CCC(=O)O)C1CCCCC1)C(=O)N[C@@H](CCC(=O)O)C(=O)N[C@@H](CS)C(=O)O,167 µM,Nonstructural protein 3 NTPase/helicase,,inhibition,Hepatitis C virus,,82%
CC(=O)N[C@H](C(=O)N[C@H](C(=O)N1C[C@H](Oc2cncc3ccccc23)CC1C(=O)NC1(C(=O)O)CC1)C(C)C)C1CCCCC1,,NS3 protease,,IC50,Hepatitis C virus,,4 µM
OCc1ccn2cc(-c3cn(Cc4cc(Cl)c(Cl)c(Cl)c4)nn3)nc2c1,,Nonstructural protein 3,,IC50,Hepatitis C virus,fluorescence,>100 µM
Clc1ccc(Oc2cccc(-c3cnc4c(-c5nn[nH]n5)cnn4c3C3CCCCC3)c2)cc1,,RNA-dependent RNA polymerase,,IC50,Hepatitis C virus,,1–10 µM
N[C@H](C(=O)N[C@@H](CCC(=O)O)C(=O)N[C@@H](CCC(=O)O)C(=O)N[C@@H](CS)C(=O)O)C1CCCCC1,167 µM,Nonstructural protein 3 NTPase/helicase,,inhibition,Hepatitis C virus,,0%
O=c1c(O)c(-c2ccc(O)c(O)c2)oc2cc(O)c(O)c(O)c12,,RdRp,genotype 2a,IC50,Hepatitis C virus,nucleotide incorporation,20.5 µM
CC(C)[C@H](NC(=O)[C@@H](NC(=O)CCC(=O)O)C1CCCCC1)C(=O)N[C@@H](CCC(=O)O)C(=O)NC1(C(=O)O)CC1,,Nonstructural protein 3 NTPase/helicase,,IC50,Hepatitis C virus,,>167 µM
O=C(O)c1cc2nc(-c3ccccc3)cc(-c3ccsc3)n2n1,,RNA-dependent RNA polymerase,,IC50,Hepatitis C virus,,>10 µM
CC(=O)N[C@H](C(=O)N[C@H](C(=O)N1C[C@H](O)CC1C(=O)NC1(C(=O)O)CC1)C(C)C)C1CCCCC1,,NS3 protease,,IC50,Hepatitis C virus,,>1000 µM
CC(=O)N[C@H](C(=O)N[C@@H](CCC(=O)O)C(=O)N[C@@H](Cc1ccc2ccccc2c1)C(=O)N[C@@H](CS)C(=O)O)C1CCCCC1,1.67 µM,Nonstructural protein 3 NTPase/helicase,,inhibition,Hepatitis C virus,,8%
O=C(O)/C=C/c1ccc(NC(=O)C2(NC(=O)c3ccc4c(c3)nc(-c3ccccn3)n4C3CCC3)CCCC2)cc1,,NS5B polymerase,,IC50,Hepatitis C virus,,0.5–5 µM
C/C=C/C(=O)C(=O)[C@H](CC)NC(=O)[C@H](CC1CCCCC1)NC(=O)[C@@H](NC(=O)[C@H](CC(C)C)NC(=O)[C@@H](CCC(=O)O)NC(=O)[C@H](CC(=O)O)NC(C)=O)[C@H](C)CC,,NS3 protease,,Ki,Hepatitis C virus,,17 µM
N#Cc1c(C2CCCCC2)nc(SCc2cc(Cl)ccc2Cl)[nH]c1=O,,NS3/NS4A helicase,,IC50,Hepatitis C virus,,<15 µM
C[C@@H]1CCCC[C@H]1n1c(-c2ccccc2)nc2cc(C(=O)NC3(C(=O)Nc4ccc(/C=C/C(=O)O)cc4)CCCC3)ccc21,,NS5B polymerase,,IC50,Hepatitis C virus,,0.5–5 µM
C=CCC(NC(=O)[C@@H](NC(=O)[C@@H](NC(=O)[C@H](CC(C)C)NC(=O)[C@@H](CCC(=O)O)NC(=O)[C@H](CC(=O)O)NC(C)=O)[C@@H](C)CC)C1CCCCC1)C(=O)O,,NS3/NS4A serine protease,,IC50,Hepatitis C virus,,25.6 µM
COc1ccc2nccc(OC3CC(C(=O)NC4(C(=O)O)CC4)N(C(=O)[C@@H](NC(=O)[C@@H](NC(C)=O)C4CCCCC4)C(C)C)C3)c2c1,,NS3 protease,,IC50,Hepatitis C virus,,16 µM
C=CCC(NC(=O)[C@H](CC1CCCCC1)NC(=O)[C@@H](NC(=O)[C@H](CC(C)C)NN1CCCCC1)[C@@H](C)CC)C(=O)C(=O)C(=O)N[C@@H](Cc1ccc(OP(=O)(O)O)cc1)C(=O)O,,NS3/NS4A serine protease,,IC50,Hepatitis C virus,,0.18 µM
CC[C@H](C)[C@H](NC(=O)[C@@H](NC(=O)CCC(=O)O)C1CCCCC1)C(=O)N[C@@H](CC1CCCCC1)C(=O)NC1(C(=O)O)CC1,167 µM,Nonstructural protein 3 NTPase/helicase,,inhibition,Hepatitis C virus,,70%
Nc1nc2cnc(N3CCC(Oc4cc(F)ccc4Br)CC3)nc2s1,,Nonstructural protein 3,,IC50,Hepatitis C virus,fluorescence,>100 µM
CC[C@H](NC(=O)[C@@H](NC(=O)[C@@H](NC(=O)[C@H](CC(C)C)NC(=O)[C@@H](CCC(=O)O)NC(=O)[C@H](CC(=O)O)NC(C)=O)[C@@H](C)CC)C1CCCCC1)C(=O)/C=C/c1ccccc1,10 µM,HCV NS3 protease,,inhibition,Hepatitis C virus,,96%
CCCC(=O)[C@H](CC)NC(=O)[C@H](CC1CCCCC1)NC(=O)[C@@H](NC(=O)[C@H](CC(C)C)NC(=O)[C@@H](CCC(=O)O)NC(=O)[C@H](CC(=O)O)NC(C)=O)[C@H](C)CC,,NS3 protease,,Ki,Hepatitis C virus,,0.65 µM
C=CCC(NC(=O)[C@H](CC1CCCCC1)NC(=O)[C@@H](NC(=O)[C@H](CC(C)C)NC(=O)[C@@H](CC(C(=O)O)C(=O)O)NC(=O)[C@@H](N)CC(=O)O)[C@@H](C)CC)C(=O)C(O)C(=O)N[C@@H](Cc1ccc(OC)cc1)C(=O)O,,NS3/NS4A serine protease,,IC50,Hepatitis C virus,,165 µM
OCc1nnc(-c2ccc(N3CCC(Oc4cc(F)ccc4Br)CC3)nn2)o1,,Nonstructural protein 3,,IC50,Hepatitis C virus,fluorescence,>100 µM
CC[C@H](NC(=O)[C@@H](NC(=O)[C@@H](NC(=O)[C@H](CC(C)C)NC(=O)[C@@H](CCC(=O)O)NC(=O)[C@H](CC(=O)O)NC(C)=O)[C@@H](C)CC)C1CCCCC1)C(=O)/C=C/c1nccs1,10 µM,HCV NS3 protease,,inhibition,Hepatitis C virus,,95%
COc1cccc(-c2ccc(-c3cnc4c(-c5nn[nH]n5)cnn4c3C3CCCCC3)cc2)c1,,RNA-dependent RNA polymerase,,IC50,Hepatitis C virus,,1–10 µM
CC[C@H](C)[C@]1(CC(=O)O)OCCc2c1[nH]c1c(C)c(OCCn3cccn3)cc(C#N)c21,,HCV polymerase,BB7,IC50,Hepatitis C virus,nucleotide incorporation,0.012 µM
CCC(C)[C@H](NC(=O)[C@@H](NC(=O)CCC(=O)O)C1CCCCC1)C(=O)N[C@@H](CCC(=O)O)C(=O)NC1(C(=O)O)CC1,,Nonstructural protein 3 NTPase/helicase,,IC50,Hepatitis C virus,,>167 µM
c1ccc(-c2cnc3c(-c4nn[nH]n4)cnn3c2-c2ccccc2)cc1,,RNA-dependent RNA polymerase,,IC50,Hepatitis C virus,,>10 µM
CCC[C@H](NC(=O)[C@H](CC1CCCCC1)NC(=O)[C@@H](NC(=O)[C@H](CC(C)C)NC(=O)[C@@H](CCC(=O)O)NC(=O)[C@H](CC(=O)O)NOC(=O)CCC(=O)O)[C@H](C)CC)C(=O)O,,NS3 protease,,Ki,Hepatitis C virus,,0.22 µM
C=CCC(NC(=O)C(=O)C(=O)C(CC=C)NC(=O)[C@H](CC1CCCCC1)NC(=O)[C@@H](NC(=O)[C@H](CC(C)C)NC(=O)[C@@H](CCC(=O)O)NC(=O)[C@H](CC(=O)O)NC(C)=O)[C@@H](C)CC)C(=O)O,,NS3/NS4A serine protease,,IC50,Hepatitis C virus,,0.00088 µM
CC(C)(C)OC(=O)CCNC(=O)Nc1nc2c(s1)-c1nc(-c3ccccc3Cl)ncc1CC2,,PI4KIIIalpha,Con1,IC50,Hepatitis C virus,PCR,0.45 µM
COc1cccc(-c2cnc3c(C(=O)O)cnn3c2C2CCCCC2)c1,,RNA-dependent RNA polymerase,,IC50,Hepatitis C virus,,1–10 µM
CC[C@H](NC(=O)[C@@H](NC(=O)[C@@H](NC(=O)[C@H](CC(C)C)NC(=O)[C@@H](CCC(=O)O)NC(=O)[C@H](CC(=O)O)NC(C)=O)[C@@H](C)CC)C1CCCCC1)C(=O)/C=C/CCCC(C)C,1 µM,HCV NS3 protease,,inhibition,Hepatitis C virus,,42%

A second listing of 5 rows from above:

c1ccc(-c2cnc3c(-c4nn[nH]n4)cnn3c2-c2ccccc2)cc1 ; target: RNA-dependent RNA polymerase ; measure: IC50 ; organism: Hepatitis C virus ; value: >10 µM
C=CCC(NC(=O)[C@H](CC1CCCCC1)NC(=O)[C@@H](NC(=O)[C@H](CC(C)C)NC(=O)[C@@H](CC(C(=O)O)C(=O)O)NC(=O)[C@@H](N)CC(=O)O)[C@@H](C)CC)C(=O)C(=O)C(=O)N[C@@H](Cc1ccc(OC)cc1)C(=O)O ; target: NS3/NS4A serine protease ; measure: IC50 ; organism: Hepatitis C virus ; value: 0.00045 µM
C[C@@H]1CCCC[C@H]1n1c(-c2ccccc2)nc2cc(C(=O)NC3(C(=O)Nc4ccc(/C=C/C(=O)O)cc4)CCCC3)ccc21 ; target: NS5B polymerase ; measure: IC50 ; organism: Hepatitis C virus ; value: 0.5–5 µM
Nc1nc2cnc(N3CCC(Oc4cc(F)ccc4Br)CC3)nc2s1 ; target: Nonstructural protein 3 ; measure: IC50 ; organism: Hepatitis C virus ; read by: fluorescence ; value: >100 µM
CC(C)[C@H](NC(=O)[C@@H](NC(=O)CCC(=O)O)C1CCCCC1)C(=O)N[C@@H](CCC(=O)O)C(=O)NC1(C(=O)O)CC1 ; target: Nonstructural protein 3 NTPase/helicase ; measure: IC50 ; organism: Hepatitis C virus ; value: >167 µM

ICn: concentration for n% inhibition. Conditions beyond the fields shown may differ between rows. Inhibition is in % at the dose shown (toxicity tests: loss of growth or viability). a–b is a range or a potency band.